Results of unrelated studies side by side (data: NIAID ChemDB).

Shared fields: cytotoxicity tests; cells: C8166; endpoint: CC50

Neighbouring rows are from separate reports. CCn: concentration that lowers growth or viability of the cells by n%. Blank or dashed fields: not listed here.

compound	read by	result
O=Cc1cn(S(=O)(=O)c2ccc(Cl)cc2)c2ccccc12	MTT	308 µM
CCCCCCCCC(=O)O[C@@]12[C@H](OC(=O)/C=C/c3ccc(Br)cc3)[C@@H](C)[C@@]3(O)[C@@H](C=C(CO)C[C@]4(O)C(=O)C(C)=C[C@@H]34)[C@@H]1C2(C)C	MTT	32.3 µM
CCC(=O)c1cn(S(=O)(=O)c2ccc(CC)cc2)c2ccccc12	MTT	27.7 µg/mL
CCc1c(Cc2cccc3ccccc23)nc(SCC(=O)c2ccccc2)[nH]c1=O	MTT	>482 µM
CCCCOP(=O)(OCCCC)OC[C@H]1O[C@@H](n2cc(C)c(=O)[nH]c2=O)C[C@@H]1OCC		>100 µM
CS(=O)(=O)Oc1ccc(Cl)c2c1C(=O)c1ccccc1C2=O	MTT	>200 µg/mL
CC1=CC[C@@H]([C@@H](C)[C@H]2CC[C@@]3(C)C4=C(C(=O)C[C@]23C)[C@H]2O[C@]23C=CC(=O)OC(C)(C)[C@@H]3CC4)OC1=O	MTT	8.77 µg/mL
Cc1ccc2c(C=O)cn(S(=O)(=O)c3ccc(Cl)cc3)c2c1	MTT	77.02 µM
O=C(/C=C/c1ccc(O)cc1)OC[C@@H]1OC(Oc2ccc(C(=O)/C=C/c3ccc(O)c(O)c3)c(O)c2O)[C@@H](O)[C@H](O)[C@H]1O		250 µM
CCOP(=O)(NCC(=O)OC)OC[C@H]1O[C@@H](n2cc(C)c(=O)[nH]c2=O)C[C@@H]1N=[N+]=[N-]		>100 µM
C=C(C)[C@@H]1C[C@@H](C)[C@H](C)c2cc(O)c(C)cc21	MTT	61.5 µg/mL
C[C@H](Cn1cnc2c(N)ncnc21)OCP(=O)(O)O		>14.3 µg/mL
Cc1ccccc1C(=O)N1c2ccccc2NC(=O)CC1C	MTT / absorbance	>400 µM
CCCOP(=O)(OCCC)OC[C@H]1O[C@@H](n2cc(C)c(=O)[nH]c2=O)C[C@@H]1N=[N+]=[N-]		>100 µM
CC(C)(C)NC(=O)[C@@H]1CN(Cc2cccnc2)CCN1C[C@@H](O)C[C@@H](Cc1ccccc1)C(=O)N[C@H]1c2ccccc2C[C@H]1O	MTT	>100 µM
Cn1cc(C=O)c(=O)n(C)c1=O		750 µM
N#Cc1ccc2c(c1)c(C=O)cn2S(=O)(=O)c1cccc([N+](=O)[O-])c1	MTT	337 µM
Cc1cc(=O)n(C)c(-c2ccc(C)o2)n1		950 µM
CCc1c(Cc2cccc3ccccc23)nc(Sc2cccs2)[nH]c1=O	MTT	280 µM
O=C(Oc1ccc(Cl)c2c1C(=O)c1ccccc1C2=O)c1ccccc1	MTT	>200 µg/mL
O=c1ccc2ccc3c(c2o1)CCO3	MTT	>1060 µM
CCCCOP(=O)(N[C@H](C(=O)OC)C(C)C)OC[C@H]1O[C@@H](n2cc(C)c(=O)[nH]c2=O)C[C@@H]1N=[N+]=[N-]		>100 µM
CC1CC(=O)Nc2ccccc2N1C(=O)c1ccccc1Cl	MTT / absorbance	>400 µM
CCc1c(Cc2ccccc2)nc(SCC(=O)c2ccc(OC)cc2)[nH]c1=O	MTT	>507 µM
CCC(=O)c1cn(S(=O)(=O)c2ccc(C)cc2)c2cc(C)ccc12	MTT	51.5 µg/mL
COC(=O)[C@@H](NP(=O)(OC)OC[C@H]1O[C@@H](n2cc(C)c(=O)[nH]c2=O)C[C@@H]1N=[N+]=[N-])C(C)C		>100 µM
Cc1ccc(S(=O)(=O)n2cc(C=O)c3cc(C#N)ccc32)cc1	MTT	195 µM
C=C(C)[C@@]1(O)[C@@H]2OC3(C)O[C@H]1[C@@H](C)[C@@]1(O3)[C@H]2[C@H](OCc2ccccc2)[C@@]2(C)O[C@@]3([C@H]1C[C@H](C)[C@@H]3OC(C)=O)[C@@H]2OCc1ccccc1	MTT	>0.2967 µM
C=C(C)[C@@H]1CC[C@@H]2C(=CC[C@]3(C)[C@@H]([C@H](C)CC/C=C(/C)C(=O)O)CC[C@@]23C)[C@@]1(C)CCC(=O)O	MTT	49.19 µg/mL
Nc1cc2c(=O)c(C(=O)O)cn(N3CCN(c4ccccn4)CC3)c2cc1Cl		>1000 µM
COc1ccc(C(=O)OC(c2cc(OC)c(OC)c(OC)c2)[C@H](C)C(C)O)cc1OC	MTT	91.8 µg/mL
Cc1cc(S(N)(=O)=O)ccc1NC(=O)COc1ccc(F)cc1Oc1cccc2ccccc12	MTT / absorbance	33.09 µM
COc1cc([C@H]2OC[C@H]3[C@@H]2CO[C@@H]3c2cc(OC)c(O[C@@H]3O[C@H](O)[C@@H](O)[C@H](O)[C@H]3O)c(OC)c2)cc(OC)c1O	MTT	>200 µg/mL
O=Cc1cn(S(=O)(=O)c2ccc(Br)cc2)c2ccccc12	MTT	80.67 µM
CCCCOP(=O)(NC(C(=O)OC)C(C)C)OC[C@H]1O[C@@H](n2cc(C)c(=O)[nH]c2=O)C[C@@H]1O		>100 µM
C=C(C)[C@@]12OC3(c4ccccc4)O[C@@H]1[C@@H]1[C@@H]4O[C@]4(C)[C@@H](O)[C@]4(O)C(=O)C(C)=C[C@H]4[C@@]1(O3)[C@H](C)[C@@H]2OCc1ccccc1	MTT	0.0233 µM
CC1CC(=O)Nc2ccccc2N1C(=O)c1cccc(F)c1	MTT / absorbance	>400 µM
CCc1c(Cc2ccccc2)nc(SCC(=O)c2ccccc2)[nH]c1=O	MTT	>549 µM
CCC(=O)c1cn(S(=O)(=O)c2ccc(CC)cc2)c2cc(C)ccc12	MTT	66.6 µg/mL
Cc1ccc(S(=O)(=O)n2cc(C=O)c3ccccc32)cc1	MTT	98.15 µM
C=C(C)[C@@]12OC3(c4ccccc4)O[C@@H]1[C@@H]1[C@@H]4O[C@]4(C)[C@@H](O)[C@@]4(O)[C@@H](C[C@H](C)[C@@H]4O)[C@@]1(O3)[C@H](C)[C@@H]2OCc1ccccc1	MTT	0.0301 µM
CCC(=O)c1cn(S(=O)(=O)c2ccc(Cl)cc2)c2cc(C)ccc12	MTT	>200 µg/mL
Cc1ccc2c(C=O)cn(S(=O)(=O)c3cccc([N+](=O)[O-])c3)c2c1	MTT	410 µM
Cc1c(Cc2cccc3ccccc23)nc(SCCc2ccccc2)[nH]c1=O	MTT	>517 µM
Cc1cc(S(N)(=O)=O)ccc1NC(=O)COc1ccc(Cl)cc1Oc1ccc2ccccc2c1Cl	MTT / absorbance	40.72 µM
COc1cc(C(=O)C(C)c2ccc(O)c(OC)c2)ccc1O	MTT	>200 µg/mL
Cc1c(Cc2cccc3ccccc23)nc(SCC(=O)c2cccs2)[nH]c1=O	MTT	>492 µM
O=C(c1cc2c([nH]c3ccccc32)c(-c2cccs2)n1)N1CCC(c2ccc([N+](=O)[O-])cc2)CC1	MTT	>400 µM
CCC(=O)c1cn(S(=O)(=O)c2ccc(OC)cc2)c2ccc(C#N)cc12	MTT	100.2 µg/mL
O=Cc1cn(S(=O)(=O)c2cccc([N+](=O)[O-])c2)c2ccccc12	MTT	305 µM
COc1cccc(C(=O)N2c3ccccc3NC(=O)CC2C)c1	MTT / absorbance	>400 µM
COc1cccc(C2CCN(C(=O)c3cc4c([nH]c5ccccc54)c(-c4cccs4)n3)CC2)c1	MTT	256 µM
CCCCCCCCCC(=O)O[C@@]12[C@H](O)[C@@H](C)[C@@]3(O)[C@@H](C=C(CO)C[C@]4(O)C(=O)C(C)=C[C@@H]34)[C@@H]1C2(C)C	MTT	118 µM
C=CC(C)(C)c1cc2ccc(O)c(OC)c2oc1=O	MTT	330.2 µM
O=C(c1cc2c([nH]c3ccccc32)c(-c2cccs2)n1)N1CCC(c2ccccn2)CC1	MTT	10.6 µM
Cc1cc(S(N)(=O)=O)ccc1NC(=O)COc1ccc(Cl)cc1Oc1cc2ccccc2cc1C	MTT / absorbance	76.71 µM
O=C1N[C@H](Cc2ccccc2)C(=O)NC1Cc1c[nH]c2c([C@]34C[C@H]5C(=O)N[C@H](Cc6ccccc6)C(=O)N5[C@H]3Nc3ccccc34)cccc12		>100 µM
COc1cc(C(OC(=O)c2ccc3c(c2)OCO3)[C@H](C)C(C)O)cc(O)c1OC	MTT	186.5 µg/mL
CCN1C(=O)NC(=O)C(C(C)C)C1CC1CC(C)CC(C#N)C1=O	MTT	811 µM
CCOP(=O)(OCC)OC[C@H]1O[C@@H](n2cc(C)c(=O)[nH]c2=O)C[C@@H]1OC(C)=O		>100 µM
CC1(C)OC2=CC(=O)C3C(=O)C=C(c4ccc(O)cc4)OC3C2=C(O)C1O	MTT	136.6 µM
COc1ccc(/C=C/C(=O)O[C@@]23[C@H](O)[C@@H](C)[C@@]4(O)[C@@H](C=C(CO)C[C@]5(O)C(=O)C(C)=C[C@@H]45)[C@@H]2C3(C)C)cc1OC(C)=O	MTT	92.23 µM
Cc1cc(S(N)(=O)=O)ccc1NC(=O)COc1ccc(Cl)cc1C(=O)c1cc(Cl)cc(C#N)c1	MTT / absorbance	>386 µM
CC1CC(=O)Nc2ccccc2N1C(=O)c1ccc(Cl)cc1	MTT / absorbance	>400 µM
N#Cc1ccc2[nH]cc(C=O)c2c1	MTT	466 µM
CC/C=C\C/C=C\C/C=C\C/C=C\C/C=C\CCCC(=O)O[C@@H]1[C@@H](C)[C@@]2(O)[C@@H](C=C(CO)C[C@]3(O)C(=O)C(C)=C[C@@H]23)[C@@H]2C(C)(C)[C@]12OC(=O)CCC/C=C\C/C=C\C/C=C\C/C=C\C/C=C\CC	MTT	>200 µM
COc1cc(C2OC[C@@H]3[C@@H](c4cc(OC)c(O)c(OC)c4)OC[C@H]23)cc(OC)c1O	MTT	346.9 µM
C/C=C/c1ccc2oc(-c3ccc(O)c(OC)c3)c(C)c2c1	MTT	92.9 µM
O=C1c2ccccc2C(=O)c2c(Cl)ccc(O)c21	MTT	>128 µg/mL
CCCOP(=O)(OCCC)OC[C@H]1O[C@@H](n2cc(C)c(=O)[nH]c2=O)C[C@@H]1OS(C)(=O)=O		>100 µM
CC1CC(=O)Nc2ccccc2N1C(=O)c1ccccc1Br	MTT / absorbance	>400 µM
COc1cc(OC)c2ccc(=O)oc2c1	MTT	417.8 µM
C=C(C)[C@@]12OC3(C)O[C@@H]1[C@@H]1[C@H](O)[C@@](C)(O)[C@@H](OCc4ccccc4)[C@@]4(O)[C@@H](C=C(C)[C@@H]4OC(C)=O)[C@@]1(O3)[C@H](C)[C@@H]2OCc1ccccc1	MTT	>0.29 µM
CC1CC(=O)Nc2ccccc2N1C(=O)c1ccc(F)cc1	MTT / absorbance	>400 µM

Again, the opening 4 rows:

compound	read by	result
O=Cc1cn(S(=O)(=O)c2ccc(Cl)cc2)c2ccccc12	MTT	308 µM
CCCCCCCCC(=O)O[C@@]12[C@H](OC(=O)/C=C/c3ccc(Br)cc3)[C@@H](C)[C@@]3(O)[C@@H](C=C(CO)C[C@]4(O)C(=O)C(C)=C[C@@H]34)[C@@H]1C2(C)C	MTT	32.3 µM
CCC(=O)c1cn(S(=O)(=O)c2ccc(CC)cc2)c2ccccc12	MTT	27.7 µg/mL
CCc1c(Cc2cccc3ccccc23)nc(SCC(=O)c2ccccc2)[nH]c1=O	MTT	>482 µM